Measured values from several laboratories, pooled; numbers as filed in NIAID ChemDB.

Common to all: whole-cell or culture tests; agent: Cytomegalovirus; method: plaque count; read-out: EC50

ECn is the concentration giving n% inhibition of infection, replication or growth. Conditions beyond the fields shown may differ between rows. Blank or dashed fields: not listed here.

SMILES	strain or isolate	cell line	result
Nc1nc2c(ncn2[C@H]2CCC[C@H]2CO)c(=O)[nH]1	AD169	HEL	>50 µg/mL
CC(C)(C)[Si](C)(C)OC[C@H]1O[C@@H](n2ccc(=O)[nH]c2=O)[C@H](O[Si](C)(C)C(C)(C)C)C1(O)[C@H](N=[N+]=[N-])C(N)=O	-	MRC-5	>5 µM
Nc1ccn(C[C@@H](CO)OCP(=O)(O)O)c(=O)n1	AD169	HEL	0.07 µg/mL
Nc1ccn(C[C@@H](CO)OCP(=O)(O)O)c(=O)n1	AD169	-	32 µg/mL
Cc1cc(N2CCCC2)c2ncc(CSCCc3ccccc3)n2c1	DAVIS	-	20 µg/mL
Nc1nc(N)c2ncn(OCC(CO)OCP(=O)(O)O)c2n1	AD169	MRC-5	>300 µg/mL
O=c1[nH]c(=O)n([C@H]2C[C@H](O)[C@@H](CO)S2)cc1C1CCCCC1	DAVIS/AD169	HEL	>1200 µM
O=c1c2ncn(COC(CO)CO)c2nc2[nH]c(-c3ccccc3)cn12	DAVIS	HEL	7 µg/mL
Nc1nc2c(ncn2COC(CO)CO)c(=O)[nH]1	DAVIS	HEL	0.5 µg/mL
CC(C)C[C@H](NC(=O)n1nnc2ccccc21)C(=O)NC1CCCC1	DAVIS	HEL	>80 µg/mL
O=c1[nH]c(=O)n([C@H]2C[C@H](O)[C@@H](CO)O2)cc1C1CC1	DAVIS/AD169	HEL	>1500 µM
CN1c2ccccc2C(C)(C)C12C=Cc1cc([N+](=O)[O-])ccc1O2	DAVIS	HEL	7.5 µM
CC(C)(C)c1cn([C@H]2C[C@H](O)[C@@H](CO)O2)c(=O)[nH]c1=O	DAVIS/AD169	HEL	>1500 µM
Nc1nc(Cl)c2ncn(OCCOCP(=O)(O)O)c2n1	AD169	MRC-5	0.62 µg/mL
CN1c2ccc([N+](=O)[O-])cc2C(C)(C)C12C=Cc1ccccc1O2	DAVIS	HEL	>49.8 µM
O=C(CCCCCCC(=O)Nc1cc(S(=O)(=O)O)cc2cc(S(=O)(=O)O)cc(O)c12)Nc1cc(S(=O)(=O)O)cc2cc(S(=O)(=O)O)cc(O)c12	Isolate T-1095	MRC-5	25 µM
CN1c2ccc(Cl)cc2C(C)(C)C12C=Cc1c(ccc3ccccc13)O2	AD169	HEL	>44.2 µM
Nc1ncnc2c1ncn2OCC(CO)OCP(=O)(O)O	AD169	MRC-5	>310 µg/mL
NC1=NS(=O)(=O)N(Cc2ccccc2)c2nc[nH]c21	AD169	HEL	>50 µg/mL
Cc1ccc(C(=O)Nc2ccc(S(=O)(=O)O)c3cc(S(=O)(=O)O)cc(S(=O)(=O)O)c23)cc1NC(=O)c1cccc(NC(=O)Nc2cccc(C(=O)Nc3cc(C(=O)Nc4ccc(S(=O)(=O)O)c5cc(S(=O)(=O)O)cc(S(=O)(=O)O)c45)ccc3C)c2)c1	AD169	MRC-5	21 µM
NC1=NS(=O)(=O)N(Cc2ccccc2)c2nc(Cc3ccccc3)[nH]c21	DAVIS	HEL	6.1 µg/mL
CCCc1cn([C@H]2C[C@H](O)[C@@H](CO)O2)c(=O)[nH]c1=O	DAVIS/AD169	HEL	>1500 µM
Nc1nc2c(ncn2OCC2COP(=O)(O)CO2)c(=O)[nH]1	AD169	MRC-5	14 µg/mL
CC1(C)[C@@H](CCO)C[C@H]1n1nnc2c(Cl)nc(N)nc21	DAVIS	HEL	>50 µg/mL
Nc1nc(N)c2ncn(C[C@H]3CCC[C@H]3CO)c2n1	AD169	HEL	>50 µg/mL
CC1(C)[C@@H](CCO)C[C@H]1n1cnc2c(=O)[nH]c(N)nc21	DAVIS	HEL	>50 µg/mL
Nc1nc(=O)n([C@@H]2O[C@H](CO)[C@@H](O)[C@@H]2F)cc1I	DAVIS	HEL	0.6 µg/mL
CCOC(=O)CC1(O)[C@@H](CO[Si](C)(C)C(C)(C)C)O[C@@H](n2ccc(=O)[nH]c2=O)[C@@H]1O[Si](C)(C)C(C)(C)C	-	MRC-5	>2 µM
Nc1nc2c(ncn2CC(CO)OCP(=O)(O)O)c(=O)[nH]1	AD169	HEL	0.1 µg/mL
OC[C@H]1O[C@@H](n2c(Br)nc3cc(Cl)c(Cl)cc32)[C@H](O)[C@@H]1O	AD169	-	0.5 µM
CC(C)C[C@H](NC(=O)n1nnc2ccccc21)C(=O)NC1CCCCC1	AD169	HEL	>16 µg/mL
N/C(=N\O)c1cc(O)c(O)c(O)c1	-	-	7.1 µM
COc1ccc2c(c1)OC1(C=C2)N(C)c2ccc(Cl)cc2C1(C)C	AD169	HEL	12.6 µM
O=S(=O)(O)c1cc(NS(=O)(=O)c2ccc(-c3ccc(S(=O)(=O)Nc4cc(S(=O)(=O)O)c5cccc(S(=O)(=O)O)c5c4)cc3)cc2)cc2c(S(=O)(=O)O)cccc12	Isolate T-1082	MRC-5	40 µM
Cc1cn([C@@H]2O[C@H](CO)[C@@H](O)[C@@H]2F)c(=O)[nH]c1=O	AD169	HEL	0.7 µg/mL
CC(C)(C)c1cn([C@H]2C[C@H](O)[C@@H](CO)S2)c(=O)[nH]c1=O	DAVIS/AD169	HEL	>1500 µM
Nc1ncnc2c1ncn2C[C@H]1COP(=O)(O)CO1	AD169	HEL	0.08 µg/mL
Nc1nc2c(ncn2C[C@H]2CCC[C@H]2CO)c(=O)[nH]1	AD169	HEL	>50 µg/mL
Cc1nc(N2CCOC[C@@H]2C)nc(-n2ccnc2)c1[N+](=O)[O-]	-	-	<0.4 µM
Nc1nc2c(ncn2COCCO)c(=O)[nH]1	DAVIS	HEL	20 µg/mL
CC1(C)[C@@H](CCO)C[C@H]1n1nnc2c(=O)[nH]c(N)nc21	DAVIS	HEL	>50 µg/mL
Nc1ncnc2c1ncn2C[C@@H](CO)OCP(=O)(O)O	AD169	HEL	0.1 µg/mL
CC(C)(C)[Si](C)(C)OC[C@H]1O[C@@H](n2ccc(=O)[nH]c2=O)[C@H](O[Si](C)(C)C(C)(C)C)[C@@]12O[C@H]2C(=O)NN	-	MRC-5	23 µM
Nc1nc2c(ncn2COC2COP(=O)(O)OC2)c(=O)[nH]1	DAVIS	HEL	1 µg/mL
Nc1nc2c(ncn2CCC(CO)CO)c(=O)[nH]1	AD169	MRC-5	52 µg/mL

For reference, 3 entries again:

SMILES | strain or isolate | cell line | result
CC(C)(C)c1cn([C@H]2C[C@H](O)[C@@H](CO)O2)c(=O)[nH]c1=O | DAVIS/AD169 | HEL | >1500 µM
CCOC(=O)CC1(O)[C@@H](CO[Si](C)(C)C(C)(C)C)O[C@@H](n2ccc(=O)[nH]c2=O)[C@@H]1O[Si](C)(C)C(C)(C)C | - | MRC-5 | >2 µM
O=c1c2ncn(COC(CO)CO)c2nc2[nH]c(-c3ccccc3)cn12 | DAVIS | HEL | 7 µg/mL